According to ChEMBL document CHEMBL4196120, “Inhibition of Connexin Hemichannels by New Amphiphilic Aminoglycosides without Antibiotic Activity” (ACS Med Chem Lett, 2018):
The source made the active and inactive calls. The calls are words filed in the database; no cut-off is given here.

Target: Gap junction beta-2 protein (Homo sapiens) (UniProt P29033)
Test: Inhibition of recombinant human Cx26 expressed in Escherichia coli LB2003 assessed as reduction in cell growth at 100 uM measured after 18 hrs

## [N-]=[N+]=NC[C@H]1O[C@H](O[C@H]2[C@H](O)[C@@H](O[C@@H]3O[C@H](CO)[C@@H](O)[C@H](N=[N+]=[N-])[C@H]3O)[C@H](N=[N+]=[N-])C[C@@H]2N=[N+]=[N-])[C@H](O)[C@@H](O)[C@@H]1O
  inhibition: inactive
